Anti-infective test results gathered from many reports (values: NIAID ChemDB through PubChem).

Shared fields: growth or infection tests; organism: Mycobacterium tuberculosis

Conditions beyond the fields shown may differ between rows. ECn is the concentration giving n% inhibition of infection, replication or growth. Percent inhibition refers to the dose given; in toxicity tests it is the harm to the cells. a–b is a range or a potency band. A number after MIC or MFC names an inhibition level or a share of isolates. MIC bound: limit read from a one-dose screen. Blank or dashed fields: not listed here.

compound,dose,endpoint,read by,changes,cell line,strain or isolate,result
O=C(O)c1ccc2oc(-c3ccccc3)cc(=O)c2c1,12.5 µg/mL,inhibition,-,-,-,H37Rv,0%
CC(C)Cn1c(-c2ccc(Cl)cc2Cl)cs/c1=N\NC(=O)COc1cnccn1,-,MIC,-,-,-,H37Rv,6.6 µg/mL
O=C(CCC(F)(F)F)N1CCC(c2cccc(C(F)(F)F)n2)CC1,-,EC50,fluorescence,-,THP-1,H37Rv,0.05–0.25 µM
CCC1Cn2cc([N+](=O)[O-])nc2O1,-,MIC,-,-,-,2 isolates (isoniazid-resistant),0.16 µg/mL
Cc1cn2c(C(=O)NCc3ccc(N4CCC(c5ccc(OC(F)(F)F)cc5)CC4)cc3)c(C)nc2s1,-,MIC,resazurin / fluorescence,QcrB1 A317V,-,H37Rv,0.2 µM
O=C(CCC(F)(F)F)N1CCC(F)(c2ccccn2)CC1,-,EC50,fluorescence,-,THP-1,H37Rv,<0.05 µM
COc1ccc(C(=O)/C=C/c2ccccc2)c(O)c1,-,MIC,-,-,-,H37Rv,>12.5 µg/mL
N[C@@H]1CONC1=O,-,MIC,BACTEC,-,-,H37Rv,≥12.8 µg/mL
COc1nc2ccccc2cc1C(c1ccccc1)C(C)(O)CCN(C)C,-,MIC90,-,-,-,H37Rv,44.34 µg/mL
COc1c(N2CCNC(C)C2)c(F)cc2c(=O)c(C(=O)O)cn(C3CC3)c12,-,MIC,-,-,-,Strain 40,0.125 µg/mL
CO[C@H]1/C=C/O[C@@]2(C)Oc3c(C)c(O)c4c(O)c(c(/C=N/N5CCN(C6CCCC6)CC5)c(O)c4c3C2=O)NC(=O)/C(C)=C\C=C\[C@H](C)[C@H](O)[C@@H](C)[C@@H](O)[C@@H](C)[C@H](OC(C)=O)[C@@H]1C,-,MIC,-,-,-,H37Rv,0.03 µg/mL
O=C(CCC(F)(F)F)N1CCC(c2ccnc(F)c2)CC1,-,EC50,fluorescence,-,THP-1,H37Rv,<0.05 µM
CC(=O)Nc1ccc(OCC(=O)NN2C(=O)C(C)SC2c2ccccc2[N+](=O)[O-])cc1,-,EC50,-,-,-,H37Rv,>12.5 µg/mL
CCCCn1c(-c2ccc(Br)cc2)cs/c1=N\NC(=O)COc1cnccn1,-,MIC,-,-,-,H37Rv,19 µg/mL
CCN(C)CCC(O)(c1cccc2ccccc12)C(c1ccccc1)c1cc2cc(Br)c(C)cc2nc1OC,-,MIC90,-,-,-,H37Rv,9.03 µg/mL
COC(=O)c1c(C(=O)OC)c2ccc3c4ncccc4ccc3n2c1C(=O)c1ccc(C)cc1,-,EC50,reporter gene / fluorescence,-,-,H37Rv,>200 µM
Cc1ccc(Nc2nc(NS(=O)(=O)c3cc(C(=O)Nc4ccc(Cl)cc4)c(Cl)cc3S)n[nH]2)cc1,6.25 µg/mL,inhibition,resazurin,-,-,H37Rv,-10%
CC(=O)Nc1ccc(OCC(=O)N/N=C/c2ccccc2[N+](=O)[O-])cc1,12.5 µg/mL,inhibition,-,-,-,H37Rv,9%
CC(C)(C)c1ccc(CN2CCC3(CC2)C(=O)Nc2ccccc23)cc1,-,EC80,resazurin,-,-,ss18b,50 µM
CCOC(=O)Nc1cc2nc(C)c(-c3cccc(N)c3)nc2c(N)n1,12.5 µg/mL,inhibition,-,-,-,H37Rv,7%
C=CC[N+]12CC=C3COC(=O)C(C)(O)C(C)(O)C(C)C(=O)OC(CC1)C32.[Br-],-,MIC bound,BACTEC,-,-,H37Rv,>12.5 µg/mL
CC1COc2c(N3CCN(C)CC3)c(F)cc3c(=O)c(C(=O)O)cn1c23,-,MIC,resazurin,Drug-resistant,-,Beijing (E-47/94),0.14 µM
CCOC(=O)Nc1cc(Cl)c(N)c(N)n1,12.5 µg/mL,inhibition,-,-,-,H37Rv,0%
CCCCn1c(-c2ccc(OC)cc2)cs/c1=N\NC(=O)COc1cnccn1,-,MIC,-,-,-,H37Rv,6.6 µg/mL
COc1ccc(OC)c(/C=C2/N=C(c3ccccc3)OC2=O)c1,12.5 µg/mL,inhibition,BACTEC,-,-,H37Rv,28%
C1=C(c2nc(-c3cccnc3)no2)c2ccccc2C12CCN(CC1CCCO1)CC2,-,MIC,resazurin,-,-,H37Rv,3.1 µM
Nc1ccc(C(=O)/C=C/c2cccnc2N)cc1,-,MIC,-,-,-,H37Rv,>12.5 µg/mL
NNC(=O)c1ccncc1,-,MIC,-,-,-,Strain 7,0.125 µg/mL
CCOC(=O)Cc1ccc2[nH]c(C(=O)OCC)cc(=O)c2c1,12.5 µg/mL,inhibition,BACTEC,-,-,H37Rv,14%
COc1nc2ccc(Br)cc2cc1C(c1ccccc1)C(O)(CCN1CCN(c2ncccn2)CC1)c1ccc2ccccc2c1,-,MIC90,-,-,-,H37Rv,67.47 µg/mL
Cc1cn2c(C(=O)NCc3ccc(N4CCOCC4)c(F)c3)c(C)nc2s1,-,MIC,resazurin / fluorescence,-,-,H37Rv,0.227 µM
CN1P(=N)(N)N=P(c2ccccc2)(c2ccccc2)N=P1(c1ccccc1)c1ccccc1.I,128 µg/mL,inhibition,BACTEC,-,-,H37Rv,97%
Cc1cn2c(C(=O)NCc3ccc(N(C)C)cc3)c(C)nc2s1,-,MIC,resazurin / fluorescence,-,-,H37Rv,0.246 µM
CN[C@@H]1[C@H](O[C@H]2[C@H](O[C@H]3[C@H](O)[C@@H](O)[C@H](N=C(N)N)[C@@H](O)[C@@H]3N=C(N)N)O[C@@H](C)[C@]2(O)C=O)O[C@@H](CO)[C@H](O)[C@H]1O,-,MIC,resazurin,Isoniazid-resistant,-,912253,0.5 µM
O=c1cc(-c2ccccc2)oc2cc(Cl)ccc12,-,MIC,-,-,-,H37Rv,>12.5 µg/mL
CN(C)c1ccc(O)c2c1C[C@H]1C[C@H]3[C@H](N(C)C)C(=O)C(C(N)=O)=C(O)[C@@]3(O)C(=O)C1=C2O,-,MIC90,-,-,-,19 strains,>25 µg/mL
O=C(CCC(F)(F)F)N1CCC(c2ncc(F)cc2F)CC1,-,EC50,fluorescence,-,THP-1,H37Rv,0.05–0.25 µM
COc1ccc(-c2cc(=O)c3ccc(I)cc3o2)cc1,-,MIC,-,-,-,H37Rv,>12.5 µg/mL
CCN1C(=O)[C@@H]2[C@H](C1=O)[C@@H](C(=O)c1ccc(C)cc1)N1c3ccc4cccnc4c3C=C[C@H]21,-,EC50,reporter gene / fluorescence,-,-,H37Rv,67 µM
CCCCC(C)C(C)N(C)c1cc(NC(=O)OCC)nc(N)c1N,12.5 µg/mL,inhibition,-,-,-,H37Rv,3%
CN(C)CCCNc1nnc(NCCCN(C)C)c2c(=O)c3sccc3[nH]c12,-,MIC bound,resazurin,-,-,H37Rv,>6.25 µg/mL
Cc1cn2c(C(=O)NCc3ccc(N4CCN(c5ccc(C(F)(F)F)cn5)CC4)c(F)c3)c(C)nc2s1,-,MIC,resazurin / fluorescence,cydKO,-,H37Rv,0.003 µM
CC(=O)Nc1ccc(OCC(=O)NN2C(=O)CSC2c2ccc(Cl)cc2)cc1,-,EC50,-,-,-,H37Rv,>12.5 µg/mL
O=C(O)C(SC1=NNC2(C(=O)N1)c1ccccc1-c1ccccc12)SC1=NNC2(C(=O)N1)c1ccccc1-c1ccccc12,-,MIC bound,BACTEC,-,-,H37Rv,>12.5 µg/mL
Cc1cn2c(C(=O)NCc3ccc(C(F)(F)F)cc3)c(C)nc2s1,-,MIC,resazurin / fluorescence,QcrB1 A317V,-,H37Rv,4.7 µM
CCc1cc(C(N)=S)ccn1,-,MBC,-,-,-,131-4,2.5 µg/mL
CC(=O)Nc1ccc(OCC(=O)NN2C(=O)C(C)SC2c2ccc(N(C)C)cc2)cc1,12.5 µg/mL,inhibition,-,-,-,H37Rv,0%
O=C(Nc1ccc(Nc2ccncc2)cc1)c1ccc(Nc2ccnc3ccc([N+](=O)[O-])cc23)cc1[N+](=O)[O-],-,MIC,resazurin,-,-,H37Rv,3.13 µg/mL
CN[C@H](CC(C)C)C(=O)N[C@H]1C(=O)N[C@@H](CC(N)=O)C(=O)N[C@H]2C(=O)N[C@H]3C(=O)N[C@H](C(=O)N[C@H](C(=O)O)c4cc(O)cc(O)c4-c4cc3ccc4O)[C@H](O)c3ccc(c(Cl)c3)Oc3cc2cc(c3O[C@@H]2O[C@H](CO)[C@@H](O)[C@H](O)[C@H]2O[C@H]2C[C@](C)(N)[C@H](O)[C@H](C)O2)Oc2ccc(cc2Cl)[C@H]1O,-,MIC90,-,-,-,24 strains,>25 µg/mL
Cc1cn(CC2C=CC(CS[As](C)C)O2)c(=O)[nH]c1=O,12.5 µg/mL,inhibition,BACTEC,-,-,H37Rv,88%
Cc1cccc(C(N)=Nc2nc(-c3ccccn3)cc3ccccc23)c1,-,MIC,-,-,-,J-3064,1 µg/mL
CC(Cc1ccco1)C(=O)NC(N)=O,-,MIC bound,BACTEC,-,-,H37Rv,>12.5 µg/mL
O=C(COc1cnccn1)N/N=c1\scc(-c2ccc(Cl)cc2Cl)n1-c1ccc(Cl)cc1,-,MIC,-,-,-,H37Rv,10.8 µg/mL
C/C=C1\CN2CC[C@]34C(=C(C(=O)OC)[C@H]1C[C@H]23)Nc1ccc(O)cc14,12.5 µg/mL,inhibition,BACTEC,-,-,H37Rv,19%
Cc1ccc(C(=O)[C@@H]2[C@H]3C(=O)N(c4ccccc4)C(=O)[C@H]3[C@H]3C=Cc4c(ccc5cccnc45)N32)cc1,-,EC50,reporter gene / fluorescence,-,-,H37Rv,>200 µM
CCOC(=O)Nc1cc(N[C@@H](C)[C@H](O)c2ccccc2)c(N)c(N)n1,-,EC50,-,-,-,H37Rv,>12.5 µg/mL
CCOC(=O)c1cc(C(=O)c2ccc(Br)cc2)n2c1ccc1c3ncccc3ccc12,-,EC50,reporter gene / fluorescence,-,-,H37Rv,>100 µM
CC(=O)Nc1ccc(OCC(=O)N/N=C/c2ccc(N(C)C)cc2)cc1,12.5 µg/mL,inhibition,-,-,-,H37Rv,20%
O=C(COc1cnccn1)N/N=c1\scc(-c2ccc(O)cc2)n1-c1ccc(Cl)cc1[N+](=O)[O-],-,MIC,-,-,-,H37Rv,7 µg/mL
COc1ccc2c(=O)cc(-c3cccc([N+](=O)[O-])c3)oc2c1,12.5 µg/mL,inhibition,-,-,-,H37Rv,0%
COC(=O)c1c(C(=O)OC)c2ccc3c4ncccc4ccc3n2c1C(=O)c1ccccc1,-,EC90,reporter gene / fluorescence,-,-,H37Rv,>20 µM
CN1C(=O)C=C(N)C1=O,-,MIC bound,BACTEC,-,-,H37Rv,>12.8 µg/mL
COC(=O)c1c(C(=O)OC)c2ccc3c4ncccc4ccc3n2c1C(=O)c1ccc(Br)cc1,-,MIC,reporter gene / fluorescence,-,-,H37Rv,>20 µM
O=C(CCC(F)(F)F)N1CCC(c2ccc(C(F)(F)F)nc2)CC1,-,EC50,fluorescence,-,THP-1,H37Rv,1–10 µM
CCOC(=O)Nc1cc(NCCC(=O)c2ccccc2)c([N+](=O)[O-])c(N)n1,12.5 µg/mL,inhibition,-,-,-,H37Rv,0%
COc1nc2ccc(Br)cc2cc1C(c1ccccc1)C(O)(CCN(C)C)c1cccc(C(F)(F)F)c1,-,MIC90,-,-,-,H37Rv,0.36 µg/mL
CC[C@H]1OC(=O)[C@H](C)[C@@H](O[C@H]2C[C@@](C)(OC)[C@@H](O)[C@H](C)O2)[C@H](C)[C@@H](O[C@@H]2O[C@H](C)C[C@H](N(C)C)[C@H]2O)[C@](C)(O)C[C@@H](C)C(=O)[C@H](C)[C@@H](O)[C@]1(C)O,-,MIC90,-,-,-,23 strains,>25 µg/mL
C=C1C(=O)OC2C1CCC1(C)CC(Br)C(=O)C(C)C21,-,MIC,BACTEC,-,-,H37Rv,≥12.5 µg/mL
O=c1cc(-c2ccccc2)oc2cc(Br)ccc12,-,MIC,-,-,-,H37Rv,>12.5 µg/mL
O=C(N/N=C/c1ccco1)C(=O)N/N=C/c1ccco1,-,MIC,BACTEC,-,-,H37Rv,≥12.5 µg/mL
CCOC(=O)Nc1cc(Nc2ccc(Cl)cc2)c(N)c(N)n1,-,EC50,-,-,-,H37Rv,<12.5 µg/mL
Cc1ccc(-c2noc(C3=CC4(CCN(CC5CCCO5)CC4)c4ccccc43)n2)cn1,-,MIC,resazurin,Drug-resistant,-,Beijing (E-47/94),0.39 µM
C1CCNC1.S=C(S)N1CCCC1,-,MIC,-,-,-,KM-R,0.8 µg/mL
COc1nc2ccc(Br)cc2cc1C(c1ccccc1)C(O)(CCCN1CCCC1)c1cccc2ccccc12,-,MIC90,-,-,-,H37Rv,47.31 µg/mL
Cn1cc(NC(=O)c2cc(NC(=O)Nc3cc(C(=O)Nc4cc(C(=O)Nc5ccc6cc(S(=O)(=O)O)cc(S(=O)(=O)O)c6c5)n(C)c4)n(C)n3)nn2C)cc1C(=O)Nc1ccc2cc(S(=O)(=O)O)cc(S(=O)(=O)O)c2c1,12.5 µg/mL,inhibition,BACTEC,-,-,H37Rv,4%
COc1ccc2c(=O)cc(-c3ccccc3)oc2c1,-,MIC,-,-,-,H37Rv,>12.5 µg/mL
FC(F)(F)c1ccc2c(c1)N(CCCN1CCN(CCC3OCCCO3)CC1)c1ccccc1S2,-,MIC,-,-,VERO,H37Rv,12.5 µg/mL
COc1ccc(-c2noc(C3=CC4(CCN(CC(=O)O)CC4)c4ccccc43)n2)cc1,-,MIC,resazurin,-,-,H37Rv,>100 µM
COc1ccc(Cc2coc3cc(OC)cc(OC)c3c2=O)cc1,-,MIC bound,BACTEC,-,-,H37Rv,>12.5 µg/mL
Cc1cn2c(C(=O)NCc3ccc(N4CCC(Oc5cccc(C(F)(F)F)c5)CC4)c(F)c3)c(C)nc2s1,-,MIC,luminescence,-,-,H37Rv,<0.39 µM
Cc1ccc(S(=O)(=O)OCC2OC(c3ccccc3)OC3C(CO)OC(c4ccccc4)OC23)cc1,-,MIC bound,BACTEC,-,-,H37Rv,>12.5 µg/mL
COc1ccc(-c2cc(=O)c3ccc(F)cc3o2)cc1,-,MIC,-,-,-,H37Rv,>12.5 µg/mL